Measured values from several laboratories, pooled; numbers as filed in NIAID ChemDB.

Common to all: growth or infection tests; species: Candida albicans

Blank or dashed fields: not listed here. Lines come from different laboratories, so protocols vary. Zones are inhibition diameters on agar. ECn is the concentration giving n% inhibition of infection, replication or growth. MIC50, MIC90 and the like: level of inhibition, or share of isolates inhibited. Inhibition is in % at the dose shown (toxicity tests: loss of growth or viability).

smiles | setting | dose | method | read-out | strain | value
CC(=O)O.Cc1c(N2CCCNCC2)c(F)cn2c(=O)c(C(=O)O)cc(C3CC3)c12 |  |  |  | MIC | CCH442 | >100 µg/mL
COc1ccc(-c2oc3ccc(Cl)cc3c(=O)c2O)cc1 |  | 100 µg/mL | agar diffusion | zone |  | 16 mm
CCN1C2=NC[C@@H](C3CCCCC3)N2C[C@@H]1Cc1ccccc1 |  |  |  | EC50 | ATCC 10231 | >64 µg/mL
Clc1ccc(-n2ncc(C(c3ccccc3)n3ccnc3)c2-c2ccccc2)c(Cl)c1 |  |  |  | MBC |  | ≥100 µM
O=[N+]([O-])c1cc(C[Se]c2nnnn2C2CCCCC2)cc([N+](=O)[O-])c1 | 24 h |  | broth dilution | EC80 | ATCC 44859 | >500 µM
O=C(N/N=C/c1ccc(-n2ccnc2)cc1)c1ccc([N+](=O)[O-])cc1 |  |  | broth dilution | MIC50 | ATCC 18804 | >745.6 µM
Clc1ccccc1C(c1ccccc1)(c1ccccc1)n1ccnc1 |  | 100 µg/mL | agar diffusion | zone |  | 23 mm
CC(C)[C@H](NC(=O)[C@H](Cc1ccccc1)NC(=O)[C@H](CCCCN)NC(=O)CNC(=O)[C@H](Cc1c[nH]c2ccccc12)NC(=O)[C@@H](N)CCCN=C(N)N)C(N)=O |  | 100 µM | colony count | inhibition |  | 19.3%
CC(C)(C)C1CCC(CN2C3=NC[C@@H](CC4CCCCC4)N3C[C@@H]2C2CCCCC2)CC1 |  |  |  | EC50 | ATCC 10231 | 9.7 µg/mL
O=[N+]([O-])c1cc(CSc2nnnn2C2CCCCC2)cc([N+](=O)[O-])c1 | 48 h |  | broth dilution | EC80 | ATCC 44859 | >500 µM
Clc1ccc(COC(Cn2ccnc2)c2ccc(Cl)cc2Cl)cc1 |  |  |  | MIC90 | 106 isolates | 16 µg/mL
CC(C)(C)C1CCC(CN2C3=NC[C@H](CC4CCCCC4)N3C[C@H]2C2CCCCC2)CC1 |  |  |  | EC50 | ATCC 10231 | 9.2 µg/mL
CC(=O)Oc1cc(/C=C/c2ccc(O)cc2)cc(OC(C)=O)c1 |  |  | broth dilution | MIC95 | SC5314 | >300 µg/mL
Cc1c(N)nc([C@H](CC(N)=O)NC[C@H](N)C(N)=O)nc1C(=O)N[C@H](C(=O)N[C@H](C)[C@@H](O)[C@H](C)C(=O)N[C@H](C(=O)NCCc1nc(-c2nc(C(=O)NCCC[S+](C)C)cs2)cs1)[C@@H](C)O)C(O[C@@H]1O[C@@H](CO)[C@@H](O)[C@H](O)[C@@H]1O[C@H]1O[C@H](CO)[C@@H](O)[C@H](OC(N)=O)[C@@H]1O)c1cnc[nH]1 |  |  |  | MLC | Isolate 94-104 | 12.5 µg/mL
COc1ccc(NC2=CC(=O)c3ccccc3C2=O)cc1 |  |  | broth dilution | MIC100 | MTCC 3017 | 31.2 µg/mL
O=c1c(O)c(-c2ccc(Cl)cc2)oc2ccccc12 |  | 100 µg/mL | agar diffusion | zone |  | 14 mm
CN(C)C1=NC(=O)/C(=C/c2ccc(Cl)cc2)S1 |  |  | broth dilution | MIC100 | ATCC 10231 | 62.5 µg/mL
Cc1c(N2C[C@@H](N)[C@@H](F)C2)c(F)cn2c(=O)c(C(=O)O)cc(C3CC3)c12.Cl |  |  |  | MIC | CCH442 | >100 µg/mL
O=[N+]([O-])c1cc(C[Se]c2nnnn2Cc2ccccc2)cc([N+](=O)[O-])c1 | 48 h |  | broth dilution | EC80 | ATCC 44859 | >500 µM
CC(=O)N1CCN(c2ccc(OC[C@H]3CO[C@](Cn4ccnc4)(c4ccc(Cl)cc4Cl)O3)cc2)CC1 |  |  | broth dilution | MIC100 | ATCC 10231 | 0.5 µg/mL
CN(C/C=C/C#CC(C)(C)C)Cc1cccc2ccccc12 |  |  |  | MIC50 | CI_5 | 4 µg/mL
Clc1ccc(-c2c(C(c3ccccc3)n3ccnc3)cnn2-c2ccc(Cl)cc2Cl)cc1 |  |  |  | MBC |  | 11.1 µM
FC(F)(F)c1cccc([Se][Se]c2cccc(C(F)(F)F)c2)c1 |  |  | broth dilution | MFC |  | >64 µg/mL
Cc1c(N2CC[C@H](NC(=O)[C@H](C)N)C2)c(F)cn2c(=O)c(C(=O)O)cc(C3CC3)c12.Cl |  |  |  | MIC | CCH442 | >100 µg/mL
O=c1c(O)c(-c2ccccc2)oc2ccccc12 |  | 100 µg/mL | agar diffusion | zone |  | 13 mm
C/C(=N\NC(=O)c1ccc([N+](=O)[O-])cc1)c1ccc(-n2ccnc2)cc1 |  |  | broth dilution | MIC50 | ATCC 18804 | >715.6 µM
Nc1[nH]c(=O)ncc1F |  |  |  | MIC90 | 106 isolates | 32 µg/mL
CN(C/C=C/C#CC(C)(C)C)Cc1cccc2ccccc12 |  |  | broth dilution | MIC100 | ATCC 10231 | 1.56 µg/mL
Clc1ccc(-c2c(C(c3ccccc3)n3ccnc3)cnn2-c2ccc(Cl)cc2)cc1 |  |  |  | MBC |  | 66.6 µM
COC(=O)/C=C1/NN=C(c2ccccn2)N(c2ccccn2)C1=O |  |  | agar diffusion | MIC50 | Clinical isolates (2 strains) | 256 µg/mL
CNC(=S)N/N=C/c1ccc(-n2ccnc2)cc1 |  |  | broth dilution | MIC50 | ATCC 18804 | >964 µM
CCC(C)CC(C)CCCCCCCCC(=O)N[C@H]1C[C@@H](O)[C@H](NCCN)NC(=O)[C@@H]2[C@@H](O)CCN2C(=O)[C@H]([C@H](O)CCN)NC(=O)[C@H]([C@H](O)[C@@H](O)c2ccc(O)cc2)NC(=O)[C@@H]2C[C@@H](O)CN2C(=O)[C@H]([C@@H](C)O)NC1=O |  |  | resazurin | MIC | DSY294 | 1 µg/mL
C1CCC(C[C@@H]2CN3C(=NC[C@@H]3C3CCCCC3)N2CCC23CC4CC(CC(C4)C2)C3)CC1 |  |  |  | EC50 | ATCC 10231 | 2.5 µg/mL
O=[N+]([O-])c1cc(CSc2nnnn2Cc2ccccc2)cc([N+](=O)[O-])c1 | 48 h |  | broth dilution | EC80 | ATCC 44859 | >500 µM
CCNC1=CC(=O)c2ccccc2C1=O |  |  | broth dilution | MIC100 | MTCC 3017 | 31.2 µg/mL
C[C@@H]1O[C@@H](O[C@@H]2[C@@H](O)[C@H](OCCc3ccc(O)c(O)c3)O[C@@H](CO)[C@H]2OC(=O)/C=C/c2ccc(O)c(O)c2)[C@H](O)[C@H](O)[C@H]1O |  |  | broth dilution | MFC | ATCC 10231 | 250 µg/mL
S=C(N/N=C/c1ccc(-n2ccnc2)cc1)Nc1ccccc1 |  |  | broth dilution | MIC50 | ATCC 18804 | >778 µM
CCCCCSc1nc2ccc(N)cc2s1 |  | 80 µM |  | inhibition | IEM 49/64 | ≥70%
C/C(=N\NC(N)=S)c1ccc(-n2ccnc2)cc1 |  |  | broth dilution | MIC50 | ATCC 18804 | >964 µM
Cc1c(NCCN)c(F)cn2c(=O)c(C(=O)O)cc(C3CC3)c12.Cl |  |  |  | MIC | CCH442 | >100 µg/mL
OC(Cn1cncn1)(Cn1cncn1)c1ccc(F)cc1F |  |  | broth dilution | MIC | YL 342 | 512 µg/mL
O=c1c(O)c(-c2ccc(O)c(O)c2)oc2cc(O)cc(O)c12 |  |  | broth dilution | MFC | ATCC 10231 | 250 µg/mL
COc1ccc(/C=C/c2cc(O)cc(OC)c2)cc1 |  |  | broth dilution | MIC95 | SC5314 | 32 µg/mL
C[C@@H]1[C@H](O)[C@@H](C)/C=C/C=C/CC/C=C/C=C/C=C/C=C/C(O[C@H]2O[C@H](C)[C@@H](O)[C@H](N)[C@@H]2O)CC2O[C@](O)(CC(O)C(O)CCC(O)CC(O)CC(O)CC(=O)O[C@H]1C)CC(O)C2C(=O)O |  |  | broth dilution | MIC50 | ATCC 18804 | >269 µM
C=C(Cl)/C=C/[C@H](O)CC(=C)C[C@H]1OC2[C@@H](O)[C@]3(O)C[C@@H](O)[C@H](C)[C@H](CCC/C=C\[C@@H]4C[C@@H](O)C[C@]5(C[C@H](OC)CC(CC(=O)[C@@H](C)[C@H](OC(C)=O)[C@@H](C)C(=C)C[C@@H]6C[C@@](C)(O)C[C@]7(C[C@H](OC(C)=O)CC(CC(=O)O[C@@H]([C@@H]1O)[C@H]2C)O7)O6)O5)O4)O3 |  |  |  | MFC | ATCC 14053 | 25 µg/mL
CN(C)c1ccc(-c2oc3ccccc3c(=O)c2O)cc1 |  | 100 µg/mL | agar diffusion | zone |  | 14 mm
CC(C)C[C@@H]1CN2C(=NC[C@@H]2C2CCCCC2)N1CCC12CC3CC(CC(C3)C1)C2 |  |  |  | EC50 | ATCC 10231 | 26.6 µg/mL
c1ccc([Se][Se]c2ccccc2)cc1 |  |  | broth dilution | MFC | ATCC 44773 | 64 µg/mL
O=C1C=C(NCCc2ccc(O)cc2)C(=O)c2ccccc21 |  |  | broth dilution | MIC100 | MTCC 3017 | 62.5 µg/mL
Oc1ccc(/C=C/c2cc(O)cc(O)c2)cc1 |  |  | broth dilution | MIC95 | SC5314 | >300 µg/mL
CC(C)[C@H](NC(=O)[C@H](Cc1ccccc1)NC(=O)[C@@H](N)CCCCN)C(N)=O |  | 100 µM | colony count | inhibition |  | 2.7%
CC(=O)N1CCN(c2ccc(OC[C@H]3CO[C@](Cn4ccnc4)(c4ccc(Cl)cc4Cl)O3)cc2)CC1 |  |  |  | MIC90 | 106 isolates | 64 µg/mL
CCN1C2=NC[C@H](Cc3ccccc3)N2C[C@H]1C1CCCCC1 |  |  |  | EC50 | ATCC 10231 | >64 µg/mL
CNC1=CC(=O)c2ccccc2C1=O |  |  | broth dilution | MIC100 | MTCC 3017 | 15.6 µg/mL
CCN1C2=NC[C@H](C(C)(C)C)N2C[C@@H]1Cc1ccccc1 |  |  |  | EC50 | ATCC 10231 | >250 µg/mL
O=C1C=C(N2CCOCC2)C(=O)c2ccccc21 |  |  | broth dilution | MIC100 | MTCC 3017 | 62.5 µg/mL

Repeating the first 4 entries:

smiles	setting	dose	method	read-out	strain	value
CC(=O)O.Cc1c(N2CCCNCC2)c(F)cn2c(=O)c(C(=O)O)cc(C3CC3)c12				MIC	CCH442	>100 µg/mL
COc1ccc(-c2oc3ccc(Cl)cc3c(=O)c2O)cc1		100 µg/mL	agar diffusion	zone		16 mm
CCN1C2=NC[C@@H](C3CCCCC3)N2C[C@@H]1Cc1ccccc1				EC50	ATCC 10231	>64 µg/mL
Clc1ccc(-n2ncc(C(c3ccccc3)n3ccnc3)c2-c2ccccc2)c(Cl)c1				MBC		≥100 µM